Data as given in PubChem BioAssay AID624099 (ICCB-Longwood, 2012).
Screen: 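Knock-downs relieving repression by E2 of an HPV18 LCR luciferase reporter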 (primary screen). Cells: human C33A cervical carcinoma cells (HPV-negative) stably expressing BPV1 E2 and an HPV18 LCR luciferase reporter. Knock-down reagent: siRNA pool against human genes, 40 nM. Time to read-out: 72 h. Measurement: 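HPV18 LCR reporter light per well, converted to plate-wise z-scores that exclude control wells, and averaged over triplicate plates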. Scale: mean z-score and z-score: higher = stronger reporter signal, weaker E2 silencing. Active means: 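Mean z ≥ 2 together with z ≥ 2 in two or more of the three replicates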.
Here is one part, drawn at random, of about 21,000 reagents. Over the whole deposit, 497 (2.4%) were called active. 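Higher z means weaker E2 silencing; only reporter increases were scored, and knock-downs that hurt cell survival may mask genuine repressor factors.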

no.	gene symbol	mean z-score	z-score, replicate A	z-score, replicate B	z-score, replicate C	activity call
1	MRAP2 (melanocortin 2 receptor accessory protein 2)	0.62	0.37	0.71	0.77	inactive
2	ZNF474 (zinc finger protein 474)	0.36	0.14	0.71	0.22	inactive
3	LOC389069 (retired record)	1.68	2.01	1.66	1.37	inactive
4	SMAGP (small cell adhesion glycoprotein)	-0.31	-0.46	-0.34	-0.12	inactive
5	ASCC2 (activating signal cointegrator 1 complex subunit 2)	1.59	1.62	1.91	1.23	inactive
6	FAM8A1 (family with sequence similarity 8 member A1)	-1.13	-0.7	-1.11	-1.58	inactive
7	NDST2 (N-deacetylase and N-sulfotransferase 2)	-0.25	0.02	-0.49	-0.28	inactive
8	DYNC1H1 (dynein cytoplasmic 1 heavy chain 1)	-1.31	-1.31	-1.4	-1.21	inactive
9	DEFA6 (defensin alpha 6)	-0.21	0.03	-0.34	-0.31	inactive
10	ALK (ALK receptor tyrosine kinase)	-0.14	-0.68	0.08	0.19	inactive
11	WDR73 (WD repeat domain 73)	0.77	0.45	1.07	0.78	inactive
12	FAM21D (retired record)	0.33	0.03	0.19	0.77	inactive
13	CDK6 (cyclin dependent kinase 6)	1.05	0.87	1.46	0.83	inactive
14	CMA1 (chymase 1)	-0.55	-0.5	-0.58	-0.59	inactive
15	GALC (galactosylceramidase)	-0.07	-0.18	0.06	-0.08	inactive
16	LOC346887 (retired record)	0.51	0.11	0.52	0.9	inactive
17	SEC23A (SEC23 homolog A, COPII component)	-0.39	-0.33	-0.54	-0.28	inactive
18	PICK1 (protein interacting with PRKCA 1)	0.33	0.19	0.15	0.67	inactive
19	NAV2-AS4 (NAV2 antisense RNA 4)	-1.3	-1.51	-1.35	-1.05	inactive
20	OXNAD1 (oxidoreductase NAD binding domain containing 1)	-0.57	-0.43	-0.7	-0.58	inactive
21	LOC387859 (retired record)	0.5	0.52	0.62	0.35	inactive
22	LOC390906 (retired record)	0.28	0.27	0.64	-0.06	inactive
23	MPHOSPH10 (M-phase phosphoprotein 10)	-0.98	-0.81	-1.09	-1.05	inactive
24	CFL1 (cofilin 1)	-0.24	-1.37	0.25	0.41	inactive
25	ENPP5	-0.5	-0.61	-0.74	-0.17	inactive
26	ZNF516 (zinc finger protein 516)	-0.21	-0.29	-0.34	0	inactive
27	KCNJ9 (potassium inwardly rectifying channel subfamily J member 9)	0.77	0.62	0.99	0.69	inactive
28	DYM (dymeclin)	-1.16	-1.18	-1.27	-1.04	inactive
29	LARGE1 (LARGE xylosyl- and glucuronyltransferase 1)	-0.21	-0.09	0	-0.54	inactive
30	RDH16 (retinol dehydrogenase 16)	-0.58	-0.67	-0.38	-0.69	inactive
31	SCAI (suppressor of cancer cell invasion)	0.47	0.64	0.33	0.43	inactive
32	PAX9 (paired box 9)	1.1	0.94	1.17	1.18	inactive
33	RABEP1 (rabaptin, RAB GTPase binding effector protein 1)	0	-0.14	0.15	-0.02	inactive
34	TAC4 (tachykinin precursor 4)	-1.78	-1.91	-1.6	-1.84	inactive
35	OSR1 (odd-skipped related transcription factor 1)	0.98	0.85	0.88	1.23	inactive
36	C1QTNF3 (C1q and TNF related 3)	-0.72	-0.8	-0.64	-0.73	inactive
37	GPR25 (G protein-coupled receptor 25)	-1.15	-0.96	-1.03	-1.44	inactive
38	ARHGEF3 (Rho guanine nucleotide exchange factor 3)	1.03	1.12	1.14	0.84	inactive
39	MAP3K12 (mitogen-activated protein kinase kinase kinase 12)	0.43	0.27	0.65	0.37	inactive

5 entries from above, reduced to “z-score, replicate B”.
NDST2 (N-deacetylase and N-sulfotransferase 2): -0.49
DYNC1H1 (dynein cytoplasmic 1 heavy chain 1): -1.4
DEFA6 (defensin alpha 6): -0.34
ALK (ALK receptor tyrosine kinase): 0.08
WDR73 (WD repeat domain 73): 1.07
